Experimental data reported in PubChem BioAssay AID624415 (National Center for Advancing Translational Sciences (NCATS), 2012).
Only a part is listed here, and it is no random draw. Active and inactive are the calls of the source. Cut-off read from the data, not from the text of the source: active = activity change below about -50%; inconclusive = between about -30% and that limit; inactive = weaker than that.

By UniProt entry, the sequences of proteins in these tests, tags left out.
UniProt Q9GZU1, whole entry: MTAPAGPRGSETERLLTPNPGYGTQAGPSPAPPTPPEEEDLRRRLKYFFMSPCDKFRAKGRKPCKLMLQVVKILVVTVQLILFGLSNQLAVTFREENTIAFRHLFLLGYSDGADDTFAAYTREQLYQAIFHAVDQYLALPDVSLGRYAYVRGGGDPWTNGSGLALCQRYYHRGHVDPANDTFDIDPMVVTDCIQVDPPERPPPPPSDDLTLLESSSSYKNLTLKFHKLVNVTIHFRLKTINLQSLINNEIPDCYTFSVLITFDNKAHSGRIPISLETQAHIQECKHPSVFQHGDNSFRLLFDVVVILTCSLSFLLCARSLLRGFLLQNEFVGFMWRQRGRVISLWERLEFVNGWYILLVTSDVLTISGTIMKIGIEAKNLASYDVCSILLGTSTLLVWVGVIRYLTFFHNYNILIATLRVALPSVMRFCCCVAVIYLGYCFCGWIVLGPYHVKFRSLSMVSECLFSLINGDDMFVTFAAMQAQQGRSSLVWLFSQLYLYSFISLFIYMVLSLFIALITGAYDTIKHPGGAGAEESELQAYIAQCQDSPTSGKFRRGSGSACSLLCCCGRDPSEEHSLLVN

target: Mucolipin-1 (Homo sapiens) (UniProt Q9GZU1); assay: qHTS for Inhibitors of the Human Mucolipin Transient Receptor Potential 1 (TRPML1); conditions: TRPML1-inducible cells, Ca2+ dye fluorescence, FDSS; active compounds read low; inhibition of EC80 agonist-evoked calcium signal;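 note: stimulus is agonist 54-4 at its EC80 concentration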
In short: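 TRPML1-DL cells, Tet-induced overnight (~16 h, 37 °C) at 1,500 cells/well, were loaded with Ca8 no-wash dye plus quencher for 45-90 min at room temperature. Compounds were pinned during FDSS kinetic reading; agonist 54-4 at EC80 (4 uM final) then added.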
% is set by controls: 0 for no effect and ±100 for the full control effect.

| Compound | activity change, negative = inhibition |
| --- | --- |
| CC1=C2N=C(C=C3N=C(C(C)=C4[N-][C@@](C)([C@@H]5N=C1[C@](C)(CCC(=O)NC[C@@H](C)OP(=O)([O-])O[C@H]1[C@@H](O)[C@@H](n6cnc7cc(C)c(C)cc76)O[C@@H]1CO)[C@H]5CC(N)=O)[C@@](C)(CC(N)=O)[C@@H]4CCC(N)=O)[C@@](C)(CC(N)=O)[C@@H]3CCC(N)=O)C(C)(C)[C@@H]2CCC(N)=O.[C-]#N.[Co+3] | inactive: -5.45% |
| CN(C)C1(CNC(=O)c2ccc(S(C)(=O)=O)cc2)CCCCC1 | inactive: 0.819% |
| O=C(/C=C/c1ccccc1)OC1CN2CCC1CC2 (stereo unspecified) | inactive: -4.04% |
| CCCC1OP(=O)(Nc2ccccc2)OCC1CC (stereo unspecified) | inactive: 3.75% |
| Cc1nn(-c2ccccc2)c2c1P(=O)(N1CCOCC1)N(C)C(c1ccccc1)=N2 (stereo unspecified) | inactive: 6.86% |
| Cc1ccc(C(=O)OC2CN3CCC2CC3)cc1 (stereo unspecified) | inactive: 6.39% |
| CC1CCC(C(C)C)C(OP(=O)(Nc2ccccn2)c2ccccc2)C1 (stereo unspecified) | inactive: 9.52% |
| COc1cc(C2NCCC3(OCCO3)C2(C)C)cc(OC)c1OC.O=[N+]([O-])c1cc([N+](=O)[O-])c(O)c([N+](=O)[O-])c1 (stereo unspecified) | inactive: 12.7% |
| Nc1cccc([As](=O)(O)c2ccccc2)c1 | inactive: -13.4% |
| CP(=O)(Nc1ccc(SC(F)(F)F)cc1)Oc1ccccc1 (stereo unspecified) | inactive: 28.8% |
| CCCOc1ccc(NP(C)(=O)Oc2ccc(Cl)cc2)cc1 (stereo unspecified) | inactive: 22.6% |
| NS(=O)(=O)c1cccc(NC(=O)COC(=O)C(O)(c2ccccc2)c2ccccc2)c1 | inactive: 0.487% |
| O=P1(Nc2ccc(Br)cn2)COc2ccccc2OC1 | inactive: -15.4% |
| Cc1ccc(OCC(=O)OC2CN3CCC2CC3)cc1 (stereo unspecified) | inactive: 15.2% |
| O=[As](O)(c1cccs1)c1cccs1 | inactive: -0.507% |
| O=P1(Nc2ncccn2)COc2ccccc2OC1 | inactive: 1.12% |
| CN1CCCCC1COC(=O)C1(O)c2ccccc2CCc2ccccc21 (stereo unspecified) | inactive: -16.9% |
| COc1ccccc1OP(C)(=O)Nc1c(C)cccc1C (stereo unspecified) | inactive: 2.81% |
| Clc1n[nH]nc1-c1nn[nH][15n]1 | inactive: -23.6% |
| O=P1(N(CCCl)CCCl)NCCC(C(F)(F)F)O1 (stereo unspecified) | inactive: 13.5% |
| CC(C)(C)C(=O)NC(Sc1ncccn1)C(Cl)(Cl)Cl (stereo unspecified) | inactive: 15.5% |

| Compound | activity change, negative = inhibition |
| --- | --- |
| O=C(O)C(O)c1ccc(N(CCCl)CCCl)cc1.c1ccncc1 (stereo unspecified) | inactive: 8.96% |
| CCC1=CC2Cc3nc4ccc(Cl)cc4c(N)c3C(C1)C2 (stereo unspecified) | inactive: 0.974% |
| O=P1(Nc2ccccn2)COc2ccccc2OC1 | inactive: 2.58% |
| CCOP(=O)(NC(=NC(C)c1ccccc1)NC(C)c1ccccc1)OCC (stereo unspecified) | inactive: 6.89% |
| O=[N+]([O-])c1cc([N+](=O)[O-])c(-n2nnc3ccccc32)c([N+](=O)[O-])c1 | inactive: -15.5% |
| CN(CCCl)Cc1cc(Cl)c(NC2=NCCN2)c(Cl)c1 | inactive: 35.4% |
| CCOP(=O)(Nc1ccc(C)cn1)OCC | inactive: -27.4% |
| CN(C(=O)Cc1ccc(Cl)c(Cl)c1)[C@@H]1CCCC[C@H]1N1CCCC1 | inactive: -1.05% |
| CC(C)/C=N\N=C(\N)N[N+](=O)[O-] | inactive: -2.55% |
| CC1(CBr)Cn2c(nc3ccccc3c2=O)S1 (stereo unspecified) | inactive: 4.76% |
| Cc1nc2ccc3ccccc3c2s1.O=[N+]([O-])c1cc([N+](=O)[O-])c(O)c([N+](=O)[O-])c1 | inactive: -3.75% |
| O=[N+]([O-])c1cc([N+](=O)[O-])c(-c2cnn(-c3ccccc3)c2)c([N+](=O)[O-])c1 | inactive: -4.11% |
| COc1ccccc1CNC(=O)COC(=O)C(O)(c1ccccc1)c1ccccc1 | inactive: 7.75% |
| O=[As](O)(c1cccc(O)c1)c1cccc(O)c1 | inactive: -9.58% |
| Cc1cccc(OCC(=O)OC2CN3CCC2CC3)c1 (stereo unspecified) | inactive: 12% |
| Cc1cc(C)cc(OP(C)(=O)Nc2ccc(C)cc2C)c1 (stereo unspecified) | inactive: 34.3% |
| CCOC(=O)c1ccc(NP(C)(=O)Oc2cc(C)cc(C)c2)cc1 (stereo unspecified) | inactive: -6.33% |
| O=C(OC1CN2CCC1CC2)c1ccc(Cl)cc1 (stereo unspecified) | inactive: -9.96% |
| COc1cc(C(=O)NCC2(N3CCOCC3)CCCCC2)cc(Cl)c1OC(C)C | inactive: -2.65% |
| CS(=O)(=O)c1ccc(Cl)c(NC(=O)COC(=O)C(O)(c2ccccc2)c2ccccc2)c1 | inactive: 11.1% |
| CCOP(=O)(Nc1cccc2ccccc12)OCC | inactive: 16.9% |

| Compound | activity change, negative = inhibition |
| --- | --- |
| CP(=O)(Nc1cccc(Br)c1)Oc1ccccc1 (stereo unspecified) | inactive: -3.41% |
| Cc1cc(C)cc(OP(C)(=O)Nc2ccccn2)c1 (stereo unspecified) | inactive: -10.8% |
| Cc1ccc(NCCc2c([N+](=O)[O-])cc([N+](=O)[O-])cc2[N+](=O)[O-])cc1 | inactive: -6.25% |
| Nc1cccc2c([As](=O)(O)O)cccc12 | inactive: -1.5% |
| CCCOP(=S)(Nc1nc(N)cc(=O)[nH]1)OCCC | inactive: -2.81% |
| Cc1ccc(C)c(NP(C)(=O)Oc2ccccc2)c1 (stereo unspecified) | inactive: 11.2% |
| Nc1ccccc1[As](=O)(O)c1ccccc1 | inactive: 7.25% |
| CCOP1(=S)c2c(C)nn(CCC#N)c2N=C(c2ccccc2F)N1C (stereo unspecified) | inactive: -7.75% |
| O=P(Nc1nccs1)(c1ccccc1)c1nc2ccccc2s1 (stereo unspecified) | inactive: 0.99% |
| O=P(Nc1nccs1)(Oc1ccccc1)Oc1ccccc1 | inactive: 12.6% |
| CS(=O)(=O)c1cc([N+](=O)[O-])c2no[n+]([O-])c2c1 | inactive: -3.99% |
| N#CCCN(C(=O)COC(=O)C(O)(c1ccccc1)c1ccccc1)c1ccc(F)cc1 | inactive: 31.8% |
| CN(C(=O)Cc1ccccc1)[C@@H]1CC[C@]2(CCCO2)C[C@H]1N1CCCC1 | inactive: 2.16% |
| CCOP1(=S)c2c(C)nn(CCC#N)c2N=C(c2ccc(F)cc2)N1C (stereo unspecified) | inactive: 19.3% |
| CN(C)C(=O)c1cc([N+](=O)[O-])cc2c1-c1c(cc([N+](=O)[O-])cc1[N+](=O)[O-])C2=O | inactive: 8.48% |
| O=[N+]([O-])c1ccc2c(c1)nnn2O | inactive: -8.14% |
| CN(C(=O)Cc1ccc(Cl)c(Cl)c1)[C@H]1CC[C@@]2(CCCO2)C[C@@H]1N1CCCC1 | inactive: 15.5% |
| CC1=NCCc2c1[nH]c1ccccc21.O=[N+]([O-])c1cc([N+](=O)[O-])c(O)c([N+](=O)[O-])c1 | inactive: -1.39% |
| NC(=O)Nc1ccc([As](=O)(O)O)cc1 | inactive: -5.82% |
